Laboratory results taken from patent US20240109955A1 (published 2024).

B1: E12 (antibody, V domains shown)
VH: EVQLVESGGGLIQPGGSLRLSCAASGVIVSYNYMNWVRQAPGKGLEWVSVIYSGGSTFYADSVRGRFTISRDNSKNTLYLQMNSLRAEDTAVYYCARDLGPAGAFDIWGLGTMVTVSS
VL: EIVLTQSPGTLSLSPGETATLSCRASQSFSSDLAWYQQKPGQAPRLLIYGASSRATGIPDRFSGSGSGTDFTLTISRLEPADFAVYYCQQYGSSPPVTFGGGTKVEIK
B2: E12 (antibody, V domains shown)
VH: B1 VH
VL: B1 VL
B3: MX1206 (antibody)
chain 1: QTVVTQEPSFSVSPGGTVTLTCGLSSGSVSTAYFPSWYQQTPGQAPRTLIYGTNTRSSGVPDRFSGSILGNKAALTITGAQADDESDYYCVLYMGRGIVVFGGGTKLTVLGGSSGEIVLTQSPGTLSLSPGETATLSCRASQSFSSDLAWYQQKPGQAPRLLIYGASSRATGIPDRFSGSGSGTDFTLTISRLEPADFAVYYCQQYGSSPPVTFGGGTKVEIKGGGGSGGSGSGGGGSASGSGEVQLVESGGGLIQPGGSLRLSCAASGVIVSYNYMNWVRQAPGKGLEWVSVIYSGGSTFYADSVRGRFTISRDNSKNTLYLQMNSLRAEDTAVYYCARDLGPAGAFDIWGLGTMVTVSSGGSSGQVQLVESGGGVVQPGRSLRLSCAASGFTLSSYGMHWVRQAPGKGLEWVAVISYDGSNKYYVDSVKGRFTISRDNSKNTLYLQMNSLRAEDTAVYYCRWAYWELLPDYYYGMDVWGQGTTVTVSSASGGSGDKTHTCPPCPAPELLGGPSVFLFPPKPKDTLMISRTPEVTCVVVDVSHEDPEVKFNWYVDGVEVHNAKTKPREEQYNSYVVSVLTVLHQDWLNGKEYKCKVSNKALPAPIEKTISKAKGQPREPQVYTLPPCRDELTKNQVSLWCLVKGFYPSDIAVEWESNGQPENNYKTTPPVLDSDGSFFKKLTVDKSRWQQGNVFSCSVLHEALHSHYTQKSLSLSPG
chain 2: DTVMTQSPLSLPVTPGEPASISCRSSQSLLNSNGYNYLDWYVQKPGQSPQLLIYLGSNRASGVPDRFSGSGSGTDFTLKISRVEAEDVGVYYCMQPLQTPLFTFGPGTKVEIKGGSSGEIVLTQSPGTLSLSPGERATLSCRASQSVSSSYLAWYQQKPGQAPRLLIYSASSRATGIPDRFSGSGSGTDFTLTISRLEPEDFAVYFCQQYVGLTGWTFGQGTKVEIKGGGGSGGSGSGGGGSASGSGQMQLVQSGPEVKKPGTSVKVSCKASGFTFTSSAVQWVRQRQRLEWIGWIVVGSGNTNYAQKFQERVTITRDMSTSTAYMELSSLRSEDTAVYYCAAPNCSNVVCYDGFDIWGQGTMVTVSSGGSSGQVTLRESGPALVKPTQTLTLTCTFSGFSLSTRGVCVSWIRQPPGKALEWLAFIDWDDDKYYNTSLKTRLTISKDTSKNQVVLTMTNVHPVDTATYYCARISSHHGSSWCTTFDYWGQGALVTVSAASGGSGDKTHTCPPCPAPELLGGPSVFLFPPKPKDTLMISRTPEVTCVVVDVSHEDPEVKFNWYVDGVEVHNAKTKPREEQYNSYVVSVLTVLHQDWLNGKEYKCKVSNKALPAPIEKTISKAKGQPREPQVCTLPPSRDELTKNQVSLSCAVKGFYPSDIAVEWESNGQPENNYKTTPPVLDSDGSFFLVSKLTVDKSRWQQGNVFSCSVLHEALHSHYTQKSLSLSPG
B4: MX1087 (antibody)
chain 1: QTVVTQEPSFSVSPGGTVTLTCGLSSGSVSTAYFPSWYQQTPGQAPRTLIYGTNTRSSGVPDRFSGSILGNKAALTITGAQADDESDYYCVLYMGRGIVVFGGGTKLTVLGGSSGEIVMTQSPAILSVSPGERATLSCRASQSVAINLAWYQQKPGQAPRLLIYAASSRATGIPGRFSGSGSETNFTLTISSLQSGDFAVYYCQQYITWPPSYTFGQGTKLEIKGGGGSGGSGSGGGGSASGSGEVQLVESGGALIQPGGSLRLSCAASGIIVSANYMSWVRQAPGKGLEWVSVIYSGGSTFYADSVKGRFTISRDNSKNTLYLEMNSLRAEDTAVYYCARDAPILGVSDWGQGTLVTVSSGGSSGQVQLVESGGGVVQPGRSLRLSCAASGFTLSSYGMHWVRQAPGKGLEWVAVISYDGSNKYYVDSVKGRFTISRDNSKNTLYLQMNSLRAEDTAVYYCRWAYWELLPDYYYGMDVWGQGTTVTVSSASGGSGDKTHTCPPCPAPELLGGPSVFLFPPKPKDTLMISRTPEVTCVVVDVSHEDPEVKFNWYVDGVEVHNAKTKPREEQYNSYVVSVLTVLHQDWLNGKEYKCKVSNKALPAPIEKTISKAKGQPREPQVYTLPPCRDELTKNQVSLWCLVKGFYPSDIAVEWESNGQPENNYKTTPPVLDSDGSFFKKLTVDKSRWQQGNVFSCSVLHEALHSHYTQKSLSLSPG
chain 2: EIVLTQSPGTLSLSPGETATLSCRASQSFSSDLAWYQQKPGQAPRLLIYGASSRATGIPDRFSGSGSGTDFTLTISRLEPADFAVYYCQQYGSSPPVTFGGGTKVEIKGGSSGDTVMTQSPLSLPVTPGEPASISCRSSQSLLNSNGYNYLDWYVQKPGQSPQLLIYLGSNRASGVPDRFSGSGSGTDFTLKISRVEAEDVGVYYCMQPLQTPLFTFGPGTKVEIKGGGGSGGSGSGGGGSASGSGQVTLRESGPALVKPTQTLTLTCTFSGFSLSTRGVCVSWIRQPPGKALEWLAFIDWDDDKYYNTSLKTRLTISKDTSKNQVVLTMTNVHPVDTATYYCARISSHHGSSWCTTFDYWGQGALVTVSAGGSSGEVQLVESGGGLIQPGGSLRLSCAASGVIVSYNYMNWVRQAPGKGLEWVSVIYSGGSTFYADSVRGRFTISRDNSKNTLYLQMNSLRAEDTAVYYCARDLGPAGAFDIWGLGTMVTVSSASGGSGDKTHTCPPCPAPELLGGPSVFLFPPKPKDTLMISRTPEVTCVVVDVSHEDPEVKFNWYVDGVEVHNAKTKPREEQYNSYVVSVLTVLHQDWLNGKEYKCKVSNKALPAPIEKTISKAKGQPREPQVCTLPPSRDELTKNQVSLSCAVKGFYPSDIAVEWESNGQPENNYKTTPPVLDSDGSFFLVSKLTVDKSRWQQGNVFSCSVLHEALHSHYTQKSLSLSPG
B5: MX1089 (antibody)
chain 1: B4 chain 1
chain 2: B3 chain 2
B6: E8 (antibody, V domains shown)
VH: QVTLRESGPALVKPTQTLTLTCTFSGFSLSTRGVCVSWIRQPPGKALEWLAFIDWDDDKYYNTSLKTRLTISKDTSKNQVVLTMTNVHPVDTATYYCARISSHHGSSWCTTFDYWGQGALVTVSA
VL: DTVMTQSPLSLPVTPGEPASISCRSSQSLLNSNGYNYLDWYVQKPGQSPQLLIYLGSNRASGVPDRFSGSGSGTDFTLKISRVEAEDVGVYYCMQPLQTPLFTFGPGTKVEIK
B7: E8 (antibody, V domains shown)
VH: B6 VH
VL: B6 VL
B8: B8 (antibody, V domains shown)
VH: EVQLVESGGALIQPGGSLRLSCAASGIIVSANYMSWVRQAPGKGLEWVSVIYSGGSTFYADSVKGRFTISRDNSKNTLYLEMNSLRAEDTAVYYCARDAPILGVSDWGQGTLVTVSS
VL: EIVMTQSPAILSVSPGERATLSCRASQSVAINLAWYQQKPGQAPRLLIYAASSRATGIPGRFSGSGSETNFTLTISSLQSGDFAVYYCQQYITWPPSYTFGQGTKLEIK

Columns and labels:
Assay in all cases: cell-based or functional assay
[1] = target: SARS-CoV-2 Omicron BA.2.75.2 spike protein (SARS-CoV-2, UniProt P0DTC2 14-1273)
[2] = target: SARS-CoV-2 Omicron BQ.1.1 spike protein (SARS-CoV-2, UniProt P0DTC2 14-1273)
[3] = target: SARS-CoV-2 Omicron BA.4/5 spike protein (SARS-CoV-2, UniProt P0DTC2 14-1273)
[4] = target: SARS-CoV-2 Omicron XBB spike protein (SARS-CoV-2, UniProt P0DTC2 14-1273)
[5] = target: SARS-CoV-2 Omicron BA.2.75.2 spike protein (SARS-CoV-2)
[6] = target: SARS-CoV-2 Omicron BQ.1.1 spike protein (SARS-CoV-2)
[7] = target: SARS-CoV-2 Omicron BA.4/5 spike protein (SARS-CoV-2)
[8] = target: SARS-CoV-2 Omicron XBB spike protein (SARS-CoV-2)
[9] = target: SARS-CoV-2 Omicron BQ.1 spike protein (SARS-CoV-2)
[10] = target: SARS-CoV-2 spike protein, Omicron BF.7 (SARS-CoV-2)

Binder | IC50, pseudovirus neutralization [1] | IC80, pseudovirus neutralization [1] | IC50, pseudovirus neutralization [2] | IC80, pseudovirus neutralization [2] | IC50, pseudovirus neutralization [3] | IC80, pseudovirus neutralization [3] | IC50, pseudovirus neutralization [4] | IC80, pseudovirus neutralization [4] | IC50, pseudovirus neutralization [10] | IC80, pseudovirus neutralization [10] | further results
B1 | 0.00699 µg/mL | 0.0401 µg/mL | 0.00529 µg/mL | 0.0174 µg/mL | 0.00462 µg/mL | 0.00921 µg/mL | 0.0126 µg/mL | 0.0311 µg/mL | – | – | –
B2 | – | – | – | – | – | – | – | – | – | – | IC50, pseudovirus neutralization [5]: 0.00699 µg/mL; IC80, pseudovirus neutralization [5]: 0.0401 µg/mL; IC50, pseudovirus neutralization [6]: 0.00529 µg/mL; IC80, pseudovirus neutralization [6]: 0.0174 µg/mL; IC50, pseudovirus neutralization [7]: 0.00462 µg/mL; IC80, pseudovirus neutralization [7]: 0.00921 µg/mL; IC50, pseudovirus neutralization [8]: 0.0126 µg/mL; IC80, pseudovirus neutralization [8]: 0.0311 µg/mL; IC50, pseudovirus neutralization [9]: 0.0119 µg/mL; IC80, pseudovirus neutralization [9]: 0.0409 µg/mL
B3 | – | – | – | – | – | – | – | – | 0.0201 µg/mL | 0.0364 µg/mL | –
B4 | – | – | – | – | – | – | – | – | 0.00906 µg/mL | 0.0314 µg/mL | –
B5 | – | – | – | – | – | – | – | – | 0.0226 µg/mL | 0.0643 µg/mL | –
B6 | 0.00172 µg/mL | 0.0059 µg/mL | 0.496 µg/mL | 1.8 µg/mL | 0.00013 µg/mL | 0.00049 µg/mL | 0.0615 µg/mL | 0.705 µg/mL | – | – | –
B7 | – | – | – | – | – | – | – | – | – | – | IC50, pseudovirus neutralization [5]: 0.00172 µg/mL; IC80, pseudovirus neutralization [5]: 0.0059 µg/mL; IC50, pseudovirus neutralization [6]: 0.496 µg/mL; IC80, pseudovirus neutralization [6]: 1.8 µg/mL; IC50, pseudovirus neutralization [7]: 0.00013 µg/mL; IC80, pseudovirus neutralization [7]: 0.00049 µg/mL; IC50, pseudovirus neutralization [8]: 0.0615 µg/mL; IC80, pseudovirus neutralization [8]: 0.705 µg/mL; IC50, pseudovirus neutralization [9]: 0.124 µg/mL; IC80, pseudovirus neutralization [9]: 5.19 µg/mL
B8 | 0.0122 µg/mL | 0.0274 µg/mL | 0.00457 µg/mL | 0.0217 µg/mL | 0.00697 µg/mL | 0.0148 µg/mL | 0.0134 µg/mL | 0.0472 µg/mL | – | – | –
